Anti-infective test results gathered from many reports (values: NIAID ChemDB through PubChem).

Common to all: whole-cell or culture tests; species: Mycobacterium tuberculosis

Inhibition is in % at the dose shown (toxicity tests: loss of growth or viability). MIC bound: limit read from a one-dose screen. Neighbouring rows are from separate reports. MIC50, MIC90 and the like: level of inhibition, or share of isolates inhibited. An empty or dashed field is not shown. ECn is the concentration giving n% inhibition of infection, replication or growth.

smiles	read-out	strain	cells	read by	setting	dose	value
CCOC(=O)c1cc(-c2ccc(Cl)cc2)n(CC(=O)N/N=C/c2ccc([N+](=O)[O-])o2)c1C	EC50	H37Rv		BACTEC			<6.25 µg/mL
CO[C@H]1/C=C/O[C@@]2(C)Oc3c(C)c(O)c4c(O)c(c5c(c4c3C2=O)NC2(CCN(CC(C)C)CC2)N=5)=NC(=O)/C(C)=C\C=C\[C@H](C)[C@H](O)[C@@H](C)[C@@H](O)[C@@H](C)[C@H](OC(C)=O)[C@@H]1C	MIC	H37RV-PLN-2					≤0.015 µg/mL
Cc1cc(C)[nH]n1	MIC90	H37Rv		resazurin			>250 µg/mL
CCOC(=O)CC(N)[C@H]1O[C@@H]2OC(C)(C)O[C@@H]2[C@H]1OCc1ccccc1	MIC	H37Rv					>100 µg/mL
CN(C)c1ccc(-c2nc(-c3ccccc3)c(-c3ccccc3)n2Cc2c(N)nc(N)[nH]c2=O)cc1	MIC bound	H37Rv		BACTEC			>12.5 µg/mL
CO/N=C/c1c2c(O)c3c(O)c(C)c4c(c3c1O)C(=O)[C@@](C)(O/C=C/[C@H](OC)[C@@H](C)[C@@H](OC(C)=O)[C@H](C)[C@H](O)[C@H](C)[C@@H](O)[C@@H](C)/C=C/C=C(/C)C(=O)N2)O4	MIC	H37Rv					0.05 µg/mL
O=[N+]([O-])c1ccccc1S(=O)(=O)c1cccc2c1NCCC2	inhibition	H37Rv		BACTEC		12.5 µg/mL	17%
CC#N.CC#N.[Cl][Pd][Cl]	MIC90	H37Rv		resazurin			481 µM
NNC(=O)c1ccncc1	MIC	H37Rv		resazurin			0.2 µM
COc1ccc2c(c1)[n+]([O-])c(C(N)=O)c(N)[n+]2[O-]	MIC bound	H37Rv		BACTEC			≤12.5 µg/mL
COC(=O)C1=NOC2(CC(=O)N(c3ccc(F)cc3)C2=O)C1	MIC	18b		resazurin			16 µg/mL
CCN(CC)Cc1c2c(O)c3c(O)c(C)c4c(c3c1O)C(=O)[C@@](C)(O/C=C/[C@H](OC)[C@@H](C)[C@@H](O)[C@H](C)[C@H](O)[C@H](C)[C@@H](O)[C@@H](C)/C=C/C=C(/C)C(=O)N2)O4	MIC	H37Rv					2 µg/mL
CSc1ccc(-c2ccc(OCC(=O)O)cc2CN2CCN(c3ccccn3)CC2)cc1	MIC	H37Rv (ATCC 27294)		broth dilution			64 µg/mL
CC(=O)Nc1ccc(/C=N/NC(N)=S)cc1F	MIC	Kanamycin-resistant					≤0.1 µg/mL
O=C1CSC2=NC3=C(COC/C3=C/c3ccc(Br)cc3)C(c3ccc(Br)cc3)N12	inhibition	H37Rv		BACTEC		12.5 µg/mL	0%
O=C(N/N=C/c1ccccc1)c1ccc(Nc2ccccc2)cc1	MIC						>40 µg/mL
O=C(Nc1ccc(Br)cc1)c1cc(Cl)ccc1OP(=O)(c1ccccc1)c1ccccc1	MIC	My 331/88			7 d		4 µM
NNC(=O)c1ccc(Nc2ccc(-c3ccccc3)cc2)cc1	MIC						>40 µg/mL
O=C(c1ccncc1)N1C(c2ccccc2)=C(c2ccccc2)Sc2nnc(-c3ccccc3Cl)n21	MIC						100 µg/mL
C/C(CCn1[nH]c(=O)ccc1=O)=N\NC(=O)C(N)=O	MIC	H37Rv		BACTEC			≥12.5 µg/mL
O=C1c2cc(Br)ccc2OP(=O)(c2ccccc2)N1c1ccc(C(F)(F)F)cc1	MIC	7357/1998			14 d		1 µM
O=C1CN(CCl)C(=O)CN1CCl	MIC bound	H37Rv		BACTEC			>12.5 µg/mL
CO[C@H]1/C=C/O[C@@]2(C)Oc3c(C)c(O)c4c(O)c(c(C=Nc5ccccc5)c(O)c4c3C2=O)NC(=O)/C(C)=C\C=C\[C@H](C)[C@H](O)[C@@H](C)[C@@H](O)[C@@H](C)[C@H](OC(C)=O)[C@@H]1C	MIC	H37Rv					5 µg/mL
CC(=O)NCC(=O)NN	MIC						>40 µg/mL
CCCCCCCCCCCCCCCCSC1=C(C)C(=O)C(OC)=C(OC)C1=O	MIC bound	H37Rv		resazurin			>6.25 µg/mL
CO[C@H]1/C=C/O[C@@]2(C)Oc3c(C)c(O)c4c(O)c(c5c(c4c3C2=O)NC2(CCN(CC(C)C)CC2)N=5)=NC(=O)/C(C)=C\C=C\[C@H](C)[C@H](O)[C@@H](C)[C@@H](O)[C@@H](C)[C@H](OC(C)=O)[C@@H]1C	MIC	Strain 86-99 (S531L)					6 µg/mL
CCCCNC(=O)Oc1ccc2c(c1)OC(=O)C2	MIC	18b		resazurin			8 µg/mL
O=c1c2cc([N+](=O)[O-])cnc2sn1-c1ccc(Br)cc1	inhibition	H37Rv		resazurin		6.25 µg/mL	97%
O=C(Nc1ccc(Br)cc1)c1cc(Cl)ccc1OP(=O)(OCc1ccccc1)OCc1ccccc1	MIC	My 331/88			7 d		8 µM
Nc1ccc(OCc2nnc3n2N(C(=O)c2ccncc2)C(=O)CS3)cc1	MIC						100 µg/mL
CC1=NC(C)=C(/C(C)=N/NC(=O)c2ccccc2O)C(C)/C1=C(\C)NNC(=O)c1ccccc1O	inhibition	H37Rv		BACTEC		12.5 µg/mL	6%
O=C1CSc2nnc(-c3ccc(Cl)cc3)n2N1C(=O)c1ccncc1	MIC						10 µg/mL
O=C(Nc1ccc(C(F)(F)F)cc1)c1cc(Cl)ccc1OP(=O)(c1ccccc1)c1ccccc1	MIC	234/2005			21 d		1 µM
CO[C@H]1/C=C/O[C@@]2(C)Oc3c(C)c(O)c4c(O)c(c(/C=N/N5CCOCC5)c(O)c4c3C2=O)NC(=O)/C(C)=C\C=C\[C@H](C)[C@H](O)[C@@H](C)[C@@H](O)[C@@H](C)[C@H](O)[C@@H]1C	MIC	H37Rv					0.2 µg/mL
CC(=O)c1c(C)[nH]c(C(=O)NN)c1C	EC50	H37Rv		BACTEC			>6.25 µg/mL
O=[n+]1c2ccccc2n([O-])c2ccccc21	MIC	H37Rv	VERO				1.6 µg/mL
CCCCCCCCCCCCCCCCNC(CC(=O)O)[C@H]1O[C@@H]2OC(C)(C)O[C@@H]2[C@H]1OC	MIC	H37Ra					>50 µg/mL
O=C(N/N=C/c1ccc(Cl)cc1Cl)c1ccccc1Cl	MIC						100 µg/mL
O=C(Nc1ccc(Cl)cc1)c1cc(Cl)ccc1OP(=O)(Oc1ccccc1)c1ccccc1	MIC	My 331/88			7 d		4 µM
COc1cc(C(=O)NN)cc(OC)c1OC	MIC						>40 µg/mL
Cc1occc1-c1nnc(SCC(=O)N(C)c2ccc(F)cc2)o1	MIC	18b		resazurin			16 µg/mL
O=C1c2cc(Cl)ccc2OP(=O)(c2ccccc2)N1c1ccc(C(F)(F)F)cc1	MIC	234/2005			21 d		1 µM
CC(=O)Nc1ccc(/C=N/N=C/c2ccc(NC(C)=O)cc2)cc1	MIC						>200 µg/mL
CCN(CC)C(=O)COc1cc2c(O)c3c(O)c(C)c4c(c13)C(=O)[C@@](C)(O/C=C/[C@H](OC)[C@@H](C)[C@@H](OC(C)=O)[C@H](C)[C@H](O)[C@H](C)[C@@H](O)[C@@H](C)/C=C/C=C(/C)C(=O)N2)O4	MIC	H37Rv					0.1 µg/mL
OC1(c2ccccc2)c2ccccc2NC2=NCCN21	inhibition	H37Rv		BACTEC		12.5 µg/mL	4%
CCOC(=O)CC(NCc1ccccc1)[C@H]1O[C@@H]2OC(C)(C)O[C@@H]2[C@H]1OCc1ccccc1	MIC	H37Rv					50 µg/mL
O=C(N/N=C/C=C/c1ccccc1)c1ccccc1Cl	MIC						>100 µg/mL
C=CCNc1nc2c(s1)C(=O)c1ccccc1C2=O	MIC	H37Rv	VERO	BACTEC			3.13 µg/mL
CCCCCCCCCCCCCCCCN[C@H](CC(=O)OCC)[C@H]1O[C@@H]2OC(C)(C)O[C@@H]2[C@H]1OC	MIC	H37Ra					>100 µg/mL
CC(NC(=O)c1ccccc1Cl)c1nnc(SCc2ccc(F)cc2)n1Cc1cccnc1	MIC	H37Rv (ATCC 27294)		broth dilution	7 d		>64 µg/mL
Cc1c[nH]c(C)c1C(=O)N/N=C/c1c[nH]c2ccccc12	EC50	H37Rv		BACTEC			>6.25 µg/mL
CCn1cc(C(=O)O)c(=O)c2cc(F)c(N3CCNCC3)cc21	MIC50	100 isolates					8 µg/mL
O=C(c1ccncc1)N1C(c2ccccc2)=C(c2ccccc2)Sc2nnc(COc3ccc4ccccc4c3)n21	MIC						100 µg/mL
CC(/C=N/NC(=S)SCc1ccccc1)=N\NC(N)=S	inhibition	H37Rv		resazurin		6.25 µg/mL	96%
COc1ccccc1N1CCN(Cc2cc(OCC(=O)O)ccc2-c2ccc(Cl)cc2)CC1	MIC	H37Rv (ATCC 27294)		broth dilution			32 µg/mL
c1ccc(N/N=c2/ccc3ccccc3o2)cc1	MIC						>200 µg/mL
Nc1cc(O)c(C(=O)O)cc1F	MIC						<12.5 µg/mL
O=[N+]([O-])c1cn[nH]c1	MIC90	H37Rv		resazurin			>250 µg/mL
CCOC(=O)c1cc(-c2ccc(C)cc2)n(CC(=O)NN)c1C	inhibition	H37Rv		BACTEC		6.25 µg/mL	16%
CNC(=O)N1CCC(n2c(C)nc(C(=O)NC3CC3)c2C)CC1	MIC	Clinical isolate		resazurin			8 µg/mL
C=C1[C@H]2CC[C@@]3(CC[C@@H]4[C@@]5(C)CCC[C@@]4(C=[N+](CCO)C5)[C@@H]3C2)[C@@H]1O	MIC	H37Rv		BACTEC			≥128 µg/mL
NNC(=O)c1cccc(Cl)c1	MIC						>200 µg/mL
CO[C@@H]1C[C@@H](C[C@H]2CC[C@H](C)[C@H]([C@@H](C)C(=O)O)O2)O[C@]2(O[C@](C)([C@H]3CC[C@@](C)([C@@H]4O[C@@H]([C@H]5O[C@@](O)(CO)[C@H](C)C[C@@H]5C)C[C@@H]4C)O3)C[C@H]2C)[C@@H]1C	MIC	H37Rv		BACTEC			3.13 µg/mL
O=C(Nc1ccc(C(F)(F)F)cc1)c1cc(Cl)ccc1OP(=O)(OCc1ccccc1)OCc1ccccc1	MIC	My 331/88			14 d		4 µM
CC1=Nc2ccccc2C(=O)N(C)N1	inhibition	H37Rv		BACTEC		12.5 µg/mL	16%
CCOC(=O)c1c(C)[nH]c(C(=O)N/N=C/c2ccc([N+](=O)[O-])o2)c1C	EC50	H37Rv		BACTEC			>6.25 µg/mL
CC(NC(=O)c1ccccc1C(F)(F)F)c1nnc(SCCOc2ccc(F)cc2)n1C	MIC	H37Rv (ATCC 27294)		broth dilution			>64 µg/mL
C[C@@H]1CN(c2c(F)c(N)c3c(=O)c(C(=O)O)cn(C4CC4)c3c2F)C[C@H](C)N1	MIC90	100 isolates					0.5 µg/mL
O=C(Nc1cccc(Br)c1)c1cnccn1	inhibition	H37Rv		BACTEC		12.5 µg/mL	58%
C/C(=N\N)c1c(C)[nH]c(C(=O)NN)c1C	inhibition	H37Rv		BACTEC		6.25 µg/mL	14%
N#Cc1nc(-c2ccco2)c(-c2ccco2)nc1C#N	inhibition	H37Rv		resazurin		6.25 µg/mL	75%
CCOC(=O)c1cc(-c2ccc(C)cc2)n(CCC(=O)NN)c1C	EC50	H37Rv		BACTEC			>6.25 µg/mL
CO[C@H]1/C=C/O[C@@]2(C)Oc3c(C)c(O)c4c(O)c(c(C=O)c(O)c4c3C2=O)NC(=O)/C(C)=C\C=C\[C@H](C)[C@H](O)[C@@H](C)[C@@H](O)[C@@H](C)[C@H](O)[C@@H]1C	MIC	H37Rv					2 µg/mL
CCOC(=O)c1cc(-c2ccc(Cl)cc2)n(CC(=O)NN)c1C	inhibition	H37Rv		BACTEC		6.25 µg/mL	10%
CCCCCCC/C=N/NC(=O)c1ccc[n+](C)c1.Cc1ccc(S(=O)(=O)[O-])cc1	MIC bound	H37Rv		BACTEC			>12.5 µg/mL
CC(C)c1cc(C(C)C)c(S(=O)(=O)N2CCN(CCO)CC2)c(C(C)C)c1	MIC	Clinical isolate		resazurin			4 µg/mL
CC1(C)CCCN1CCCN1c2ccccc2Sc2ccc(Cl)cc21.Cl	MIC	H37Rv	VERO	BACTEC			12.5 µg/mL
CO[C@H]1/C=C/O[C@@]2(C)Oc3c(C)c(O)c4c(O)c(c(C=Nc5ccccc5)c(O)c4c3C2=O)NC(=O)/C(C)=C\C=C\[C@H](C)[C@H](O)[C@@H](C)[C@@H](O)[C@@H](C)[C@H](O)[C@@H]1C	MIC	H37Rv					1 µg/mL

A second listing of 7 rows from above:

smiles,read-out,strain,cells,read by,setting,dose,value
O=C(c1ccncc1)N1C(c2ccccc2)=C(c2ccccc2)Sc2nnc(-c3ccccc3Cl)n21,MIC,,,,,,100 µg/mL
CCCCNC(=O)Oc1ccc2c(c1)OC(=O)C2,MIC,18b,,resazurin,,,8 µg/mL
CC#N.CC#N.[Cl][Pd][Cl],MIC90,H37Rv,,resazurin,,,481 µM
COc1ccc2c(c1)[n+]([O-])c(C(N)=O)c(N)[n+]2[O-],MIC bound,H37Rv,,BACTEC,,,≤12.5 µg/mL
c1ccc(N/N=c2/ccc3ccccc3o2)cc1,MIC,,,,,,>200 µg/mL
C[C@@H]1CN(c2c(F)c(N)c3c(=O)c(C(=O)O)cn(C4CC4)c3c2F)C[C@H](C)N1,MIC90,100 isolates,,,,,0.5 µg/mL
CCN(CC)Cc1c2c(O)c3c(O)c(C)c4c(c3c1O)C(=O)[C@@](C)(O/C=C/[C@H](OC)[C@@H](C)[C@@H](O)[C@H](C)[C@H](O)[C@H](C)[C@@H](O)[C@@H](C)/C=C/C=C(/C)C(=O)N2)O4,MIC,H37Rv,,,,,2 µg/mL